This is a selection; strong and weak results do not stand in their true shares. Results filed as inconclusive are left out. Activity calls are given as the source filed them. The call rests on the fitted dose curve.
On the % scale 0 is the no-effect control and ±100 the full control effect.

This assay is described as follows: Primary qHTS Assay for Foot and Mouth Disease Virus Antivirals against NCGC Sytravon and CBC Compound Libraries: Renilla Luciferase Signal. Further: nearly all actives have a fitted effect of over 55% in size. The settings on record: FMDV replicon cells; at 57.5 µM (top of the series). For orientation: Quantitative high-throughput screening tests each substance at several concentrations.
Take `CC(C)(C)c1ccc(C(=O)NCC2(N3CCOCC3)CCCCC2)cc1`: the activity change, negative = inhibition was inactive: -1.29%.
As to `CC1CN(CCc2ccccc2)C(C)CC1=O` (centres undefined), the activity change, negative = inhibition is inactive: 5.58%.
On to `Cc1ccccc1C(=O)NCC1(N(C)C)CCCCC1`, for which the activity change, negative = inhibition is inactive: -4.3%.
With `Clc1ccccc1CN1CCC(Nc2ccc(Br)cc2)CC1`, the activity change, negative = inhibition was inactive: 24.8%.
`Cn1cc(C(=O)NCC2(N3CCOCC3)CCCCC2)c2ccccc21`: the activity change, negative = inhibition is inactive: -18%.
As to `CN(C)C1(CNC(=O)c2cc3c(s2)CCC3)CCCCC1`, the activity change, negative = inhibition is inactive: -6.54%.
Next, `CN(C)C1(CNC(=O)c2ccc(C(C)(C)C)cc2)CCCCC1`: inactive: -15.3%; `COc1cc(C(=O)NCC2(N3CCOCC3)CCCCC2)cc(OC)c1OC`: inactive: 0.879%; `CCCOc1ccc(C(=O)NCC2(N(C)C)CCCCC2)cc1`: inactive: -0.701%.
Next, `CCCOc1ccccc1C(=O)NCC1(N(C)C)CCCCC1`: inactive: -0.181%; `Cc1ccc2oc(C(=O)NCC3(N4CCCCC4)CCCCC3)cc(=O)c2c1`: inactive: -0.818%.
In the case of `Fc1ccc(CN2CCC(Nc3ccc(Br)cc3)CC2)cc1`, the activity change, negative = inhibition was inactive: -0.966%.
For the compound `O=C(NCC1(N2CCCCC2)CCCCC1)c1n[nH]c(=O)c2ccccc12`, the activity change, negative = inhibition is inactive: -7.55%.
As for `Cc1cc(NC2CCN(Cc3ccccc3)CC2)ccc1Br`, the activity change, negative = inhibition is inactive: -17.2%.
As to `Cn1nc(C(=O)NCC2(N3CCOCC3)CCCCC2)c2ccccc2c1=O`, the activity change, negative = inhibition is inactive: 6.3%.
Turning to `CCC(=O)N(c1ccccc1)C1CCNCC1`, the activity change, negative = inhibition is inactive: -8.68%.
For the compound `O=C(NCC1(N2CCOCC2)CCCCC1)c1n[nH]c(=O)c2ccccc12`, the activity change, negative = inhibition was inactive: 7.41%.
For the compound `Brc1ccc(NC2CCN(Cc3cccc(Br)c3)CC2)cc1`, the activity change, negative = inhibition is inactive: 2.64%.
In the case of `O=C(NCC1(N2CCOCC2)CCCCC1)c1ccccc1`, the activity change, negative = inhibition is inactive: -12.7%.
`O=C(NCC1(N2CCOCC2)CCCCC1)c1ccc([N+](=O)[O-])cc1`: the activity change, negative = inhibition was inactive: -1.55%.
Regarding `CC1C(=O)CCN(CCc2ccccc2)C1C` (centres undefined), the activity change, negative = inhibition was inactive: -1.55%.
Turning to `O=C(NCC1(N2CCOCC2)CCCCC1)c1ccccc1[N+](=O)[O-]`, the activity change, negative = inhibition was inactive: 7.99%.
Regarding `CCc1cc(C(=O)NCC2(N3CCOCC3)CCCCC2)sc1C`, the activity change, negative = inhibition was inactive: 5.52%.
As to `CCCOc1cccc(C(=O)NCC2(N3CCOCC3)CCCCC2)c1`, the activity change, negative = inhibition is inactive: -1.15%.
In the case of `CCCOc1cccc(C(=O)NCC2(N(C)C)CCCCC2)c1` it was inactive: 2.46%.
Consider `CCOc1ccc(C(=O)NCC2(N3CCOCC3)CCCCC2)cc1`, for which the activity change, negative = inhibition was inactive: -2.4%.
Next, `O=C(NCC1(N2CCOCC2)CCCCC1)c1cc2c(s1)CCCC2`: inactive: -9.58%; `CCCCOc1ccccc1C(=O)NCC1(N2CCOCC2)CCCCC1`: inactive: 3.42%.
As to `O=C(NCC1(N2CCOCC2)CCCCC1)c1ccccc1Br`, the activity change, negative = inhibition is inactive: -9.28%.
In the case of `O=C(NCC1(N2CCOCC2)CCCCC1)c1c[nH]c2ccccc12`, the activity change, negative = inhibition was inactive: -7.31%.
Turning to `COc1ccccc1C(=O)NCC1(N(C)C)CCCCC1`, the activity change, negative = inhibition is inactive: 1.01%.
In the case of `CC1CN(CCc2ccccc2)CCC1=O` (centres undefined) it was inactive: 13%.
In the case of `CCOC(=O)N1CCC(=O)CC1` it was inactive: -9.15%; in that of `Cc1ccc(C(C)CCN(CCCl)CCCl)cc1` (centres undefined), inactive: -28.3%; in that of `O=C(NCC1(N2CCCCC2)CCCCC1)c1c[nH]c2ccccc12`, inactive: -11.5%.
Next, `CCCOc1ccccc1C(=O)NCC1(N2CCOCC2)CCCCC1`: inactive: 15.4%; `CN(C)C1(CNC(=O)c2nn(C)c(=O)c3ccccc23)CCCCC1`: inactive: -1.19%.
In the case of `COc1ccccc1C(=O)NCC1(N2CCOCC2)CCCCC1`, the activity change, negative = inhibition was inactive: -8.36%.
In the case of `O=C(NCC1(N2CCOCC2)CCCCC1)c1ccc(Cl)cc1` it was inactive: -10.6%.

Values taken from PubChem BioAssay AID1745857 (National Center for Advancing Translational Sciences (NCATS), 2022).
